# From publication PMC5861052, “Uptake and accumulation of Microcystin-LR based on exposure through drinking water: An animal model assessing the human health risk” (Scientific Reports, 2018)
# Assay: Screening for depuration product MC-LR-GSH in porcine liver and kidney, experiment 2
# Conditions: pig, based on raw peak area of the quantifying ion Q, qualitative
substance,measurement,value
Microcystin-LR-Glutathione,MC-LR-GSH level in liver compared with kidney,higher
